The target of this data set is T1, CueR (Pseudomonas aeruginosa PAO1) (UniProt Q9HV30).
T1 sequence (looked up): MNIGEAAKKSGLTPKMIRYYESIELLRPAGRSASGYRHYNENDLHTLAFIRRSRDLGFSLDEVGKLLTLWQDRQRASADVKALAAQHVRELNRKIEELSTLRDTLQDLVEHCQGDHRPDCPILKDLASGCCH
Nature of the data set: EMSA. The settings on record: recombinant protein; residues 1-132; label: none (SYBR Gold stain); probe letters rebuilt from the primers and the genome. A general note: In EMSA bound probe runs differently from free probe, usually more slowly.

Tags and fusion partners may be left off the protein sequences shown.

With “CTGCGACTCCCGCCGTCTTGAATGAAGACCACCGCGTAGCGGGCCGGATGGCCGCTCGCGCCGGGTCATGCCGAAAAGAAGAATGCGCCTGTCGTTATACGCCCCAGGCACGGGGAACGAAATGATCGCACAAGGGCGGCTGGCTCTTCTGCGGCATGGGGCCGCAGAATTTTCCGTTGCGGAGAGCGTGCCGGCGGCGCAATCGAGGACAAGCTTTCACCGCAGAGAAAGAATAAAAACCCACAAAAGCCGCACAAATGGGAAATTCTACTAATTTTCCTTTAATGCTTGCCATTCAAATGCAGTCTCACTAGTGTGGTACGCATGAAAACACCACACACCCTCATCCTGCTCCGCCAACACGCCTGCCT (double strand) [oprC promoter]”, the binding result is recorded as “binds”.

These data come from publication PMC6907878.
